Assay results reported in the supplement of paper PMC9931576.
Human monoclonal antibodies against the spike receptor-binding domain (heavy:light variable regions). IC50 against pseudoviruses bearing the spike of naturally observed variants; lower = stronger; >10 µg/ml means not reached at the top dose. No active / inactive call. The stated detection limit is 0.0005 µg/ml; values near or below 0.001 µg/ml lie at the floor of the assay.

B1: BD55-6541 (protein)
chain 1: EVQLLESGGGLVQPGGSLRLSCAASGFTFSTYAMSWVRQGPGNGLDWIAAITADGGGSFYADSVKGRFTVSRDTSKNTLYLQMNSLRVEDTAVYYCAREYSGHDQVFDYWGQGALVTVSS
chain 2: DIQMTQSPSSLSASVGDRVTITCRAGQSISRYLNWYQQKAGKAPKLLIYGSSSLQSGVPSRFSGSGSGTDFTLTISSLQPEDFATYYCQQSYTSPSITFGQGTRLEIK
B2: BD55-6514 (protein)
chain 1: EVQLVESGGGLVQPGRSLRLSCAASGFTFDDYAMHWVRQAPGKGLEWVAGISWNSGDIAYADSVKGRFTISRDNAKNSLYLQMNSLRAEDTALYYCVKDPLGEFLYFFDYWGQGALVTVSS
chain 2: EIVMTQSPATLSVSPGERATLSCRASQSINTNLAWYQQKPGQAPRLLIYGGSSRATGVPARFSGSGSGTEFTLTISSLQSEDFAIYYCQHYNNWPLSYTFGQGTKLQIK
B3: BD55-1263 (protein)
chain 1: QVQVVQSGGEVKKPGASVKVSCKTSGYNFTNYGISWFRQAPGQGLEWMGWISPYNGNTKYVRKFQGRVTMITDTSSTTAYMELRSLRSDDTAFYYCARDAELGGRFDPWGQGTLVTVSS
chain 2: QSALTQPASVSGSPGQSITISCTGASSDVGSYKLVSWYQQHPGKAPKLLIYEVSNRPSGVSNRVSGSKSGNTASLTISGLQAEDEADYYCCAYAGSSTWVFGGGTKLTVL
B4: BD55-6526 (protein)
chain 1: QVHLVESGGGLVKPGGSLRLSCAASGFIFSDYYMSWVRQAPGKGLEWISYISTSSTDTYYADSVQGRFTISRDDAKNSLYLQMNSLRAEDTAVYYCARDFVEYDFLGAYYYMDVWGKGTTVTVSS
chain 2: DLQMTQSPSTLSASVGDRVTITCRASQSISTWLAWYQQKPGKAPKLLIYKASNLESGVPSRFSGSGSGTEFTLTISSLQPDDFATYYCQQYNIVSWTFGQGTKVEIK
B5: BD55-6485 (protein)
chain 1: QVQLQESGSRLVKPSQTLSLTCTVSGDSISNSGYSWSWIRQPPGGGLEWIGYIYHDGSPFYNAPLRGRVTISMDRSKDQFSLRLTSATVADTAVYFCARETSTSGFYYFDFWGQGTLVTVSS
chain 2: DIQMTQSPSSLSASVGDRVTITCRASQSINMYLNWYQVKPGKAPKFLLYATSNLPSGVPSRFSGSGSETEFTLTISSLQPEDFATYFCQQSYSTPYTFGQGTKLEIK
B6: BD55-6493 (protein)
chain 1: QLQLQESGPGLVKPSGTLSLTCSVTGGSVSSTSYSWAWIRQPPGKGLEWIGTINYSGTTSYNPSLKSRLTMSVDSSKNQFSLKLNSVAAADTAVYFCARQTGDPEFDHWGQGSLVAVSS
chain 2: DIQMTQSPSTLSASVGDRVTITCRASQSISRWLAWYQQHPGKAPNLLIYKASILENGVPSRFSGSGSGTEFTLTISSLQPDDFATYYCQQYSTNFVTFGQGTKVEIK

biological target: SARS-CoV-2 Omicron BA.1 spike pseudovirus; assay: pseudovirus neutralization IC50; higher = weaker neutralization
Method: (§1)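 Single-round VSV luciferase pseudovirus mixed with antibody dilutions for 1 h and put on Huh-7 cells for about a day; IC50 from the dose curve.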

Binder | pseudovirus neutralization IC50 [µg/mL]
B1 | > 10
B2 | > 10
B3 | > 10
B4 | > 10
B5 | > 10
B6 | > 10

biological target: SARS-CoV-2 Omicron BA.2 spike pseudovirus; assay: as above
Method: as §1

Binder | pseudovirus neutralization IC50 [µg/mL]
B1 | > 10
B2 | > 10
B3 | > 10
B4 | > 10
B5 | > 10
B6 | > 10

biological target: SARS-CoV-2 Omicron BA.2.75 spike pseudovirus; assay: as above
Method: as §1

Binder | pseudovirus neutralization IC50 [µg/mL]
B1 | > 10
B2 | > 10
B3 | > 10
B4 | > 10
B5 | > 10
B6 | > 10

biological target: SARS-CoV-2 Omicron BA.5 spike pseudovirus; assay: as above
Method: as §1

Binder | pseudovirus neutralization IC50 [µg/mL]
B1 | > 10
B2 | > 10
B3 | > 10
B4 | > 10
B5 | > 10
B6 | > 10

biological target: SARS-CoV-2 Omicron BQ.1.1 spike pseudovirus; assay: as above
Method: as §1

Binder | pseudovirus neutralization IC50 [µg/mL]
B1 | > 10
B2 | > 10
B3 | > 10
B4 | > 10
B5 | > 10
B6 | > 10

biological target: SARS-CoV-2 Omicron XBB spike pseudovirus; assay: as above
Method: as §1

Binder | pseudovirus neutralization IC50 [µg/mL]
B1 | > 10
B2 | > 10
B3 | > 10
B4 | > 10
B5 | > 10
B6 | > 10

biological target: SARS-CoV-2 early D614G spike pseudovirus; assay: as above
Method: as §1

Binder | pseudovirus neutralization IC50 [µg/mL]
B1 | 5.09
B2 | 0.289
B3 | 0.001
B4 | > 10
B5 | > 10
B6 | 1.91
